Source: patent US7173004B2, “Macrocyclic isoquinoline peptide inhibitors of hepatitis C virus” (Bristol-Myers Squibb Company, priority 2003, dated 2007)
The structures given here were assigned with low confidence; some may be wrong.

Sequences of proteins named here, by UniProt entry; tags and fusion partners are left off. A change or cut given only in a name is not applied to a line headed by its entry. Residues count along the entry.
UniProt P27958, 1027-1657 C1454S limits assumed, stated change not applied: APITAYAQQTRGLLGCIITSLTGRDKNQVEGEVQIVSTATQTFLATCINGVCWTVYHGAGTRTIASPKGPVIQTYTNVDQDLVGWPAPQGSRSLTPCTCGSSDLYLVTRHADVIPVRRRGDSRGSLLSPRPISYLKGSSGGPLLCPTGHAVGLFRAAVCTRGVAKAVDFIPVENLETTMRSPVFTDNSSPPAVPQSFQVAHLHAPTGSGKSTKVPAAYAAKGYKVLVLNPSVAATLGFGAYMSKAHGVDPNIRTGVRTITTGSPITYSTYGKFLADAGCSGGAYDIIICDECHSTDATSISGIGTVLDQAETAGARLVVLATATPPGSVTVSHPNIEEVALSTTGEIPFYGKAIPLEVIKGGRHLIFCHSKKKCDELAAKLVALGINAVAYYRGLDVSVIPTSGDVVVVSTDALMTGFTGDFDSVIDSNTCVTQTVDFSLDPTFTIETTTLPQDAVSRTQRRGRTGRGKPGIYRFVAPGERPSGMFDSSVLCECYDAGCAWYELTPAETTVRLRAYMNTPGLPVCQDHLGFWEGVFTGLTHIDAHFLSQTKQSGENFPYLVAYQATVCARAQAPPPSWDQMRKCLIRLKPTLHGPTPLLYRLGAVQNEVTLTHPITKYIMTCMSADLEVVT

Columns and labels:
[1] = test system: HCV replicon (HCV 1b-377-neo replicon cells, Huh7); assay: HCV replicon cell-based FRET assay; conditions: activity range symbols
Procedure: HCV Replion assays were utilized in the present invention, and were prepared, conducted and validated as follows:
An HCV replicon whole cell system was established as described by Lohmann V, Korner F, Koch J, Herian U, Theilmann L, Bartenschlager R., Science 285(5424): 110–3 (1999). This system enabled us to evaluate the effects of our HCV Protease compounds on HCV RNA replication. Briefly, using the HCV strain 1B sequence described in the Lohmann paper (Assession number: AJ238799), an HCV cDNA was synthesized by Operon Technologies, Inc. (Alameda, Calif.), and the full-length replicon was then assembled in plasmid pGem9zf(+) (Promega, Madison, Wis.) using standard molecular biology techniques. […]
Huh7 cells, constitutively expressing the HCV replicon, were grown in Dulbecco's Modified Eagle Media (DMEM) containing 10% Fetal calf serum (FCS) and 1 mg/ml G418 (Gibco-BRL). […] After 4 days, cells were first assessed for cytotoxicity using alamar Blue (Trek Diagnotstic Systems) for a CC50 reading. The toxicity of compound (CC50) was determined by adding 1/10th volume of alamar Blue to the media incubating the cells. After 4 hr, the fluorescence signal from each well was read, with an excitation wavelength at 530 nm and an emission wavelength of 580 nm, using the Cytofluor Series 4000 (Perspective Biosystems). […]

[2] = target: HCV NS3/4A protease complex, BMS strain (genotype 1a) (UniProt P27958, C1454S/C1711G, species not given/STRAIN_BMS); assay: Recombinant HCV NS3/4A protease complex FRET peptide assay, BMS strain; format: biochemical; conditions: NS3/4A BMS strain; activity range symbols
Text: Recombinant HCV NS3/4A Protease Complex FRET Peptide Assay
The purpose of this in vitro assay was to measure the inhibition of HCV NS3 protease complexes, derived from the BMS strain, H77C strain or J416S strain, as described below, by compounds of the present invention. This assay provides an indication of how effective compounds of the present invention would be in inhibiting HCV proteolytic activity.
Serum from an HCV-infected patient was obtained from Dr. T. Wright, San Francisco Hospital. An engineered full-length cDNA (compliment deoxyribonucleic acid) template of the HCV genome (BMS strain) was constructed from DNA fragments obtained by reverse transcription-PCR (RT-PCR) of serum RNA (ribonucleic acid) and using primers selected on the basis of homology between other genotype 1a strains. From the determination of the entire genome sequence, a genotype 1a was assigned to the HCV isolate according to the classification of Simmonds et al. (See P Simmonds, K A Rose, S Graham, S W Chan, F McOmish, B C Dow, E A Follett, P L Yap and H Marsden, J. Clin. Microbiol., 31(6), 1493–1503 (1993)). […]

## CCC1(S(=O)(=O)NC(=O)[C@@]23C[C@H]2/C=C\CCCCC[C@H](NC(=O)OC(C)(C)C)C(=O)N2C[C@H](Oc4nccc5ccccc45)C[C@H]2C(=O)N3)CC1
[1]
  EC50: < 50 nM
[2]
  IC50: < 50 nM
